Data as given in PubChem BioAssay AID624099 (ICCB-Longwood, 2012)
The deposit covers about 21,000 reagents; below is an unselected part. In the full data, 497 (2.4%) got an active call. 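Higher z means weaker E2 silencing; only reporter increases were scored, and knock-downs that hurt cell survival may mask genuine repressor factors.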 Entries without a mark were called inactive.

- Screen: 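Host factors E2 relies on to silence an HPV18 LCR reporter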 (primary screen)
- Cells: human C33A cervical carcinoma cells (HPV-negative) stably expressing BPV1 E2 and an HPV18 LCR luciferase reporter
- Reagent: siRNA pool against human genes, 40 nM
- Time to read-out: 72 h
- Measurement: 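HPV18 LCR reporter light per well, converted to plate-wise z-scores that exclude control wells, and averaged over triplicate plates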
- Reading the numbers: mean z-score and z-score: higher = stronger reporter signal, weaker E2 silencing
- Call rule: 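Mean z ≥ 2 together with z ≥ 2 in two or more of the three replicates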

no.	Gene	PubChem SID	mean z-score	z-score, replicate A	z-score, replicate B	z-score, replicate C
1	ADCY10P1 (GeneID 221442)	SID134326270	-1.53	-1.33	-1.77	-1.5
2	MXRA8 (GeneID 54587)	SID134318958	-0.19	0.12	-0.35	-0.34
3	GFUS (GeneID 7264)	SID134315753	0.07	-0.21	-0.01	0.42
4	HKDC1 (GeneID 80201)	SID134311963	0.14	0.16	0.26	-0.01
5	RBM10 (GeneID 8241)	SID134313901	-1.27	-1.03	-1.41	-1.37
6	PRKACA (GeneID 5566)	SID56478824	-1.01	-0.63	-1.34	-1.07
7	SNAPC4 (GeneID 6621)	SID134323359	-0.36	-0.26	-0.54	-0.29
8	SLC19A4P (GeneID 56918)	SID134312371	1.21	1	1.3	1.32
9	TNFAIP3 (GeneID 7128)	SID134314611	-0.94	-1.13	-0.72	-0.97
10	RAB11B (GeneID 9230)	SID134310597	-1	-1.06	-1.12	-0.84
11	SOX17 (GeneID 64321)	SID134317268	-1.13	-1.25	-1.51	-0.62
12	SLC6A6 (GeneID 6533)	SID134312652	-0.91	-0.64	-0.99	-1.11
13	LOC388947 (retired record) (GeneID 388947)	SID134327167	-0.42	-0.63	-0.15	-0.48
14	FCER1G (GeneID 2207)	SID134316172	0.31	0.11	0.55	0.26
15	PRPF40B (GeneID 25766)	SID134317062	-0.1	-0.19	-0.15	0.02
16	ANO3 (GeneID 63982)	SID134318824	-2.22	-2.3	-2.6	-1.75
17	COLGALT1 (GeneID 79709)	SID134322033	-0.82	-1.3	-0.87	-0.28
18	HNRNPCL1 (GeneID 343069)	SID134325105	-0.95	-0.86	-0.96	-1.03
19	CKB (GeneID 1152)	SID56479084	0.49	0.51	0.2	0.76
20	DRC12 (GeneID 283152)	SID134328235	0.51	-0.19	0.84	0.89
21	BGLAP (GeneID 632)	SID134313495	-0.32	-0.04	-0.62	-0.29
22	GRHL1 (GeneID 29841)	SID134324086	0.19	0.77	0.36	-0.57
23	LINC03010 (GeneID 100286906)	SID134327711	0.63	0.49	0.59	0.81
24	LINC03010 (GeneID 100286906)	SID134327934	1.1	1.04	1.26	0.99

Targets above whose gene name starts with H or h:
Gene	PubChem SID	mean z-score	z-score, replicate A	z-score, replicate B	z-score, replicate C
HKDC1 (GeneID 80201)	SID134311963	0.14	0.16	0.26	-0.01
HNRNPCL1 (GeneID 343069)	SID134325105	-0.95	-0.86	-0.96	-1.03
